# Data as given in PubChem BioAssay AID504761 (Drosophila RNAi Screening Center, 2011)
# Assay: 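Genome-wide fly cell screen for genes dengue virus requires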 (primary screen)
# Cells: D.Mel-2 cells from Drosophila
# Reagents: long dsRNA against Drosophila genes
# Conditions: infection with dengue virus type 2; dose and infection time not stated
# Detection: 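Per well on two replicate plates, imaging gave the percent of cells positive for viral envelope protein, ranked by infection, and a nuclear count of cells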
# Direction: infection score: higher = more virus-infected cells; cell count: higher = more cells in the well
# Call rule: 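Very low infection ranking in both replicate wells (chance probability at most 0.065), then a retest showing infection dropped 1.5-fold or more at p below 0.05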
# Calls: active = confirmed: knock-down lowers infection; inactive = not picked or not confirmed
# The screen tested about 22,000 reagents; below is a random part of those that have a named target and a result. Over the whole deposit, 116 (0.52%) got an active call. 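Calls depend on retest data that are not deposited; infection was ranked per plate without normalising between plates; the unit of the infection score is not given.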 The raw values are shown without normalisation. A plus sign joins genes that one reagent is predicted to hit. Not given: the amount of reagent, the time to read-out.
The opening 4 records, to show the layout:
predicted target,DRSC id,"infection score, replicate 1","infection score, replicate 2","cell count, replicate 1","cell count, replicate 2",outcome
Vmat + CG13330,DRSC06365,17.1,17.4,6339,6452,inactive
Vmat + CG13330,DRSC28600,16.6,18.2,5233,5015,inactive
CG9812,DRSC04566,13.1,11.4,3966,5519,inactive
Gcn2,DRSC16678,0.63,2.03,6064,6643,inactive

The listing, repeating the preview:
predicted target,DRSC id,"infection score, replicate 1","infection score, replicate 2","cell count, replicate 1","cell count, replicate 2",outcome
Vmat + CG13330,DRSC06365,17.1,17.4,6339,6452,inactive
Vmat + CG13330,DRSC28600,16.6,18.2,5233,5015,inactive
CG9812,DRSC04566,13.1,11.4,3966,5519,inactive
Gcn2,DRSC16678,0.63,2.03,6064,6643,inactive
TwdlM,DRSC15810,2.36,,1314,333,inactive
apt,DRSC23278,2.11,8.81,6303,6768,inactive
apt,DRSC26181,6.24,5.7,4933,6962,inactive
Jon65Ai,DRSC09731,1.1,4.75,5982,5912,inactive
Jon65Ai,DRSC24837,5.3,5.04,6033,5497,inactive
Zip48C,DRSC06314,13.2,25.5,4381,3075,inactive
CG13989,DRSC02321,3.11,1.72,6231,6564,inactive
CG3588,DRSC18473,3.81,2.85,5538,841,inactive
CG3588,DRSC24598,3.74,5.06,6603,6484,inactive
glo,DRSC16145,1.97,4.15,6591,6791,inactive
glo,DRSC27807,3.26,17.4,2975,6669,inactive
CG33290,DRSC11493,3.48,1.04,6033,6433,inactive
CG33290,DRSC27148,9.77,5.01,6276,6745,inactive
CG3294,DRSC00590,13.4,,4343,505,inactive
CG3294,DRSC26228,5.2,1.25,6572,5981,inactive
CG31823,DRSC01887,17.3,0.57,5444,6709,inactive
hale,DRSC10882,2.43,3.98,6639,6584,inactive
hale,DRSC28772,12.7,7.09,3012,1510,inactive
Shaw,DRSC00433,4.13,3.77,6251,6289,inactive
Shaw,DRSC00788,2.57,6.45,6105,5843,inactive
Shaw,DRSC21368,1.44,1.25,5904,6385,inactive
mthl6,DRSC10234,4.98,1.93,6042,6484,inactive
CG17190,DRSC15184,4.51,4.13,6518,6227,inactive
Dhc62B,DRSC08655,3.97,0.97,5866,6467,inactive
Ent1,DRSC00330,3.89,2.62,6036,6525,inactive
GstD10,DRSC15346,5.94,5.42,6790,6811,inactive
GstD10,DRSC25140,1.76,0.79,6691,6351,inactive
Egfrap,DRSC09963,8.34,5.21,5227,5763,inactive
Egfrap,DRSC09964,2.04,2.2,5730,5314,inactive
Egfrap,DRSC25261,4.27,2.33,6678,6522,inactive
CG32379,DRSC10318,1.95,2.68,6349,6306,inactive
CG3788,DRSC04418,3.76,7.59,6230,6257,inactive
CG3788,DRSC24502,1.62,2.31,6046,6399,inactive
CG42541,DRSC17973,1.09,3.19,6712,5710,inactive
CG42541,DRSC18120,1.58,6.81,6756,5716,inactive
CG42541,DRSC25318,3.55,4.53,5798,5921,inactive
CG42541,DRSC25441,2.46,2.46,6304,6412,inactive
